In assay [1] the test system is C. glabrata YEM19 (over-expressing the CgCDR1 and CgCDR2 pumps). Description: Checkerboard / broth microdilution assay, potentiation of fluconazole vs. C. glabrata. The following applies: for MIC: Nakaseomyces glabratus, 48 h; for MPC8: in combination with fluconazole, strain YEM19. For orientation: In broth dilution the organism is exposed to a series of concentrations in liquid medium.

Assay [2] has as its system Candida albicans YEM15 (over-expressing the CDR1 and CDR2 pumps). Put plainly: Checkerboard / broth microdilution assay, potentiation of fluconazole vs. C. albicans. The following applies: for MIC: Candida albicans, 48 h; for MPC8 = concentration of efflux pump inhibitor necessary to reduce the fluconazole MIC 8-fold: in combination with fluconazole, strain YEM15.

The structures appear in SMILES notation.

For orientation: MIC means the lowest concentration that inhibits growth of the organism.

With `COc1ccc(N(C(=O)Nc2ccc(F)cc2)C(C)c2nc3ccccc3c(=O)n2N2CCNCC2)c(OC)c1` (centres unmarked) [Compound 46], in assay [1], the MIC was above 32 µg/mL and the MPC8 worked out at 32 µg/mL.
In the same order, the values of `COc1ccc(N(C(=O)Nc2ccc(F)cc2)C(C)c2nc3ccccc3c(=O)n2N2CCN(CCCC(=O)O)CC2)c(OC)c1` (centres unmarked) [Compound 52] are above 32 µg/mL and 32 µg/mL.
Regarding `COc1ccc(N(C(=O)Nc2ccc(F)cc2)C(C)c2nc3ccccc3c(=O)n2N2CCN(C(=O)[C@@H]3CCCN3)CC2)c(OC)c1` (some centres unmarked) [Compound 54], in assay [1], the minimal inhibitory concentration (MIC) is above 32 µg/mL and the MPC8 is 4 µg/mL.
In the same order, the values of `COc1ccc(N(C(=O)Nc2ccc(C)cn2)C(C)c2nc3ccccc3c(=O)n2N2CCN(C)CC2)c(OC)c1` (centres unmarked) [Compound 59] are above 32 µg/mL and 16 µg/mL.
Turning to `COc1cccc(N(C(=O)Nc2ccc(F)cc2)C(C)c2nc3ccccc3c(=O)n2N2CCN(C)CC2)c1` (centres unmarked) [Compound 60], in assay [2], the MIC was above 32 µg/mL and the “MPC8 = concentration of efflux pump inhibitor necessary to reduce the fluconazole MIC 8-fold” value was determined as 16 µg/mL.
Turning to `COc1cc(N(C(=O)Nc2ccc(F)cc2)C(C)c2nc3ccccc3c(=O)n2N2CCN(C)CC2)cc(OC)c1OC` (centres unmarked) [Compound 61], in assay [2], the minimum inhibitory concentration (MIC) is above 32 µg/mL and the “MPC8 = concentration of efflux pump inhibitor necessary to reduce the fluconazole MIC 8-fold” value was determined as 8 µg/mL.
Consider `CCOC(=O)N1CCN(n2c(C(C)N(C(=O)Nc3ccc(F)cc3)c3ccc(OC)cc3OC)nc3ccc(Cl)cc3c2=O)CC1` (centres unmarked) [Compound 92], for which, in assay [2], the minimum inhibitory concentration (MIC) is above 32 µg/mL and the “MPC8 = concentration of efflux pump inhibitor necessary to reduce the fluconazole MIC 8-fold” value turned out to be 4 µg/mL.
The like results for `CCOC(=O)N1CCN(n2c(C(C)N(C(=O)Nc3ccc(F)cc3)c3ccc(OC)cc3OC)nc3c(OC)cccc3c2=O)CC1` (centres unmarked) [Compound 95] were, in that order, above 32 µg/mL and 32 µg/mL.
On to `COc1ccc(N(C(=O)Nc2ccc(F)cc2)C(C)c2nc3ccc(F)cc3c(=O)n2N2CCNCC2)c(OC)c1` (centres unmarked) [Compound 127], for which, in assay [1], the minimum inhibitory concentration (MIC) was above 32 µg/mL and the MPC8 is 8 µg/mL.
Consider `COc1ccc(N(C(=O)Nc2ccc(F)cc2)C(C)c2nc3ccccc3c(=O)n2N2CCN(C(=O)CN3CCN(C)CC3)CC2)c(OC)c1` (centres unmarked) [Compound 138], for which, in assay [1], the minimal inhibitory concentration (MIC) is above 32 µg/mL and the MPC8 was 1 µg/mL.
In the same order, the values of `COc1ccc(N(C(=O)Nc2ccc(F)cc2)C(C)c2nc3ccccc3c(=O)n2N2CCN(C(=O)CN3CCNCC3)CC2)c(OC)c1` (centres unmarked) [Compound 140] are above 32 µg/mL and 2 µg/mL.
The like results for `COc1ccc(N(C(=O)Nc2ccc(F)cc2)C(C)c2nc3ccccc3c(=O)n2N2CCN(C(=O)Cn3cncn3)CC2)c(OC)c1` (centres unmarked) [Compound 149] were, in that order, above 32 µg/mL and 32 µg/mL.
On to `COc1ccc(N(C(=O)Nc2ccc(F)cc2)C(C)c2nc3ccccc3c(=O)n2N2CCN(C(=O)CN3C(=O)CCC3=O)CC2)c(OC)c1` (centres unmarked) [Compound 150], for which, in assay [1], the minimal inhibitory concentration (MIC) is above 32 µg/mL and the MPC8 was determined as 8 µg/mL.
Consider `COc1ccc(N(C(=O)Nc2ccc(F)cc2)C(C)c2nc3ccccc3c(=O)n2N2CCN(C(=O)[C@H]3CCCN3)CC2)c(OC)c1` (some centres unmarked) [Compound 159], for which, in assay [1], the MIC is above 32 µg/mL and the MPC8 was 2 µg/mL.
On to `COc1ccc(N(C(=O)Nc2ccc(F)cc2)C(C)c2nc3ccccc3c(=O)n2N2CCN(C(=O)NCCN3CCOCC3)CC2)c(OC)c1` (centres unmarked) [Compound 169], for which, in assay [1], the minimal inhibitory concentration (MIC) is above 32 µg/mL and the MPC8 was found to be 1 µg/mL.
In the same order, the values of `COc1ccc(N(C(=O)Nc2ccc(F)cc2)C(C)c2nc3ccccc3c(=O)n2N2CCN(C(=O)NCCN(C)C)CC2)c(OC)c1` (centres unmarked) [Compound 170] are above 32 µg/mL and 1 µg/mL.
The like results for `COc1ccc(N(C(=O)Nc2ccc(F)cc2)C(C)c2nc3ccccc3c(=O)n2N2CCN(C(=O)NCCN3CCCC3)CC2)c(OC)c1` (centres unmarked) [Compound 171] were, in that order, above 32 µg/mL and 1 µg/mL.
In the same order, the values of `COc1ccc(N(C(=O)Nc2ccc(F)cc2)C(C)c2nc3ccccc3c(=O)n2N2CCN(C(=O)NCCN3CCNCC3)CC2)c(OC)c1` (centres unmarked) [Compound 172] are above 32 µg/mL and 4 µg/mL.
Turning to `COc1ccc(N(C(=O)Nc2ccc(F)cc2)C(C)c2nc3ccccc3c(=O)n2N2CCN(CCCC(=O)NS(=O)(=O)C(F)(F)F)CC2)c(OC)c1` (centres unmarked) [Compound 182], in assay [1], the MIC is above 32 µg/mL and the MPC8 turned out to be 32 µg/mL.
In the same order, the values of `COc1ccc(N(C(=O)Nc2ccc(F)cc2)[C@@H](C)c2nc3ccccc3c(=O)n2N2CCN(C(=O)[C@@H]3CCCN3)CC2)c(OC)c1` [Compound 183] are above 32 µg/mL and 1 µg/mL.
The like results for `COc1ccc(N(C(=O)Nc2ccc(F)cc2)[C@H](C)c2nc3ccccc3c(=O)n2N2CCN(C(=O)[C@@H]3CCCN3)CC2)c(OC)c1` [Compound 184] were, in that order, above 32 µg/mL and 32 µg/mL.
In the same order, the values of `COc1ccc(N(C(=O)Nc2ccc(F)cc2)C(C)c2nc3ccccc3c(=O)n2N2CCN(C(=O)CN)CC2)c(OC)c1` (centres unmarked) [Compound 185] are above 32 µg/mL and 16 µg/mL.
Take `COc1ccc(N(C(=O)Nc2ccc(F)cc2)C(C)c2nc3ccccc3c(=O)n2N2CCN(C(=O)CCN)CC2)c(OC)c1` (centres unmarked) [Compound 186]: in assay [1], the MIC was above 32 µg/mL and the MPC8 is 8 µg/mL.
In the same order, the values of `COc1ccc(N(C(=O)Nc2ccc(F)cc2)C(C)c2nc3ccccc3c(=O)n2N2CCN(C(=O)[C@H](C)N)CC2)c(OC)c1` (some centres unmarked) [Compound 187] are above 32 µg/mL and 4 µg/mL.
The like results for `COc1ccc(N(C(=O)Nc2ccc(F)cc2)C(C)c2nc3ccccc3c(=O)n2N2CCN(C(=O)[C@@H](N)CO)CC2)c(OC)c1` (some centres unmarked) [Compound 188] were, in that order, above 32 µg/mL and 8 µg/mL.
For `CNCC(=O)N1CCN(n2c(C(C)N(C(=O)Nc3ccc(F)cc3)c3ccc(OC)cc3OC)nc3ccccc3c2=O)CC1` (centres unmarked) [Compound 189], in assay [1], the minimum inhibitory concentration (MIC) is above 32 µg/mL and the MPC8 is 4 µg/mL.
The like results for `COc1ccc(N(C(=O)Nc2ccc(F)cc2)C(C)c2nc3ccccc3c(=O)n2N2CCN(C(=O)C[C@@H]3CCCN3)CC2)c(OC)c1` (some centres unmarked) [Compound 190] were, in that order, above 32 µg/mL and 0.5 µg/mL.
For the compound `COc1ccc(N(C(=O)Nc2ccc(F)cc2)C(C)c2nc3ccccc3c(=O)n2N2CCN(C(=O)C3CCNCC3)CC2)c(OC)c1` (centres unmarked) [Compound 197], in assay [1], the MIC is above 32 µg/mL and the MPC8 is 4 µg/mL.
In the same order, the values of `COc1ccc(N(C(=O)Nc2ccc(F)cc2)C(C)c2nc3ccccc3c(=O)n2N2CCN(C(=O)N3CCNCC3)CC2)c(OC)c1` (centres unmarked) [Compound 200] are above 32 µg/mL and 16 µg/mL.
In the same order, the values of `CC(c1nc2ccccc2c(=O)n1N1CCN(C(=O)[C@@H]2CCCN2)CC1)N(C(=O)Nc1ccc(F)cc1)c1ccc(OCC2CC2)cc1OCC1CC1` (some centres unmarked) [Compound 206] are above 32 µg/mL and 0.25 µg/mL.
For `CC(c1nc2ccccc2c(=O)n1N1CCN(C(=O)[C@@H]2CCCN2)CC1)N(C(=O)Nc1ccc(F)cc1)c1cccc(-n2nccn2)c1` (some centres unmarked) [Compound 208], in assay [1], the minimal inhibitory concentration (MIC) is above 32 µg/mL and the MPC8 was found to be 32 µg/mL.
